Pooled drug test results. Numbers come from NIAID ChemDB, via PubChem.

All rows: growth or infection tests; species: Mycobacterium avium intracellulare; endpoint: MIC

Lines come from different laboratories, so protocols vary.

{"structure": "CC1(C)S[C@@H]2[C@H](NC(=O)[C@H](C(=O)[O-])c3ccsc3)C(=O)N2[C@H]1C(=O)[O-].[Na+].[Na+]", "strain or isolate": "CIPT 140310021", "result": "35 µg/mL"}
{"structure": "CSc1nc(N)c2c(n1)NC(c1ccc(Cl)cc1)CC(c1ccc3c(c1)OCO3)=N2", "setting": "clinical isolate", "read by": "MTT / broth dilution / absorbance", "strain or isolate": "MNT1408", "result": ">32 µg/mL"}
{"structure": "NC[C@H]1O[C@H](O[C@H]2[C@H](O)[C@@H](O[C@H]3O[C@H](CO)[C@@H](O)[C@H](N)[C@H]3O)[C@H](N)C[C@@H]2N)[C@H](O)[C@@H](O)[C@@H]1O", "strain or isolate": "CIPT 140310031", "result": "5 µg/mL"}
{"structure": "Nc1nc(N)c2c(n1)NC(c1ccc3c(c1)OCO3)CC(c1ccc(F)cc1)=N2", "setting": "clinical isolate", "read by": "MTT / broth dilution / absorbance", "strain or isolate": "MNT1408", "result": ">32 µg/mL"}
{"structure": "CO[C@H]1/C=C/O[C@@]2(C)Oc3c(C)c(O)c4c(O)c(c(/C=N/N5CCN(C6CCCC6)CC5)c(O)c4c3C2=O)NC(=O)/C(C)=C\\C=C\\[C@H](C)[C@H](O)[C@@H](C)[C@@H](O)[C@@H](C)[C@H](OC(C)=O)[C@@H]1C", "strain or isolate": "74", "result": "0.125 µg/mL"}
{"structure": "Cc1onc(-c2ccccc2Cl)c1C(=O)N[C@@H]1C(=O)N2[C@@H]1SC(C)(C)[C@@H]2C(=O)O", "strain or isolate": "CIPT 140310001", "result": "75 µg/mL"}
{"structure": "CC[C@H]1OC(=O)[C@H](C)[C@@H](OC(=O)CC2CCCCC2)[C@H](C)[C@@H](O[C@@H]2O[C@H](C)C[C@H](N(C)C)[C@H]2O)C(C)(O)C[C@@H](C)/C(=N\\OCCCOc2ccccc2)[C@H](C)[C@@H](O)[C@]1(C)O", "strain or isolate": "20066 (clarithromycin-susceptible)", "result": "3.13 µg/mL"}
{"structure": "CO[C@H]1/C=C/O[C@@]2(C)Oc3c(C)c(O)c4c(O)c(c5c(c4c3C2=O)NC2(CCN(CC(C)C)CC2)N=5)=NC(=O)/C(C)=C\\C=C\\[C@H](C)[C@H](O)[C@@H](C)[C@@H](O)[C@@H](C)[C@H](OC(C)=O)[C@@H]1C", "strain or isolate": "N-897 (HIV-)", "result": "0.125 µg/mL"}
{"structure": "CSc1nc(N)c2c(n1)NC(c1ccccc1)CC(c1ccc3c(c1)OCO3)=N2", "setting": "clinical isolate", "read by": "MTT / broth dilution / absorbance", "strain or isolate": "MNT1408", "result": ">32 µg/mL"}
{"structure": "CC[C@H]1OC(=O)[C@H](C)[C@@H](O[C@H]2C[C@@](C)(OC)[C@@H](OC(C)=O)[C@H](C)O2)[C@H](C)[C@@H](O[C@@H]2O[C@H](C)C[C@H](N(C)C)[C@H]2OC(=O)NNCc2cccc(OC)c2)C(C)(O)C[C@@H](C)/C(=N\\OCCCC2CCCCC2)[C@H](C)[C@@H](O)[C@]1(C)O", "strain or isolate": "20066 (clarithromycin-susceptible)", "result": "0.39 µg/mL"}
{"structure": "Oc1ccc(CCN=C=S)cc1", "read by": "visual reading", "result": "32 µg/mL"}
{"structure": "CC[C@H]1OC(=O)[C@H](C)[C@@H](O[C@H]2C[C@@](C)(OC)[C@@H](O)[C@H](C)O2)[C@H](C)[C@@H](O[C@@H]2O[C@H](C)C[C@H](N(C)C)[C@H]2O)[C@](C)(OC)C[C@@H](C)C(=O)[C@H](C)[C@@H](O)[C@]1(C)O", "strain or isolate": "N-846 (HIV-)", "result": "1 µg/mL"}
{"structure": "CC[C@H]1OC(=O)[C@H](C)[C@@H](O[C@H]2C[C@@](C)(OC)[C@@H](OC(C)=O)[C@H](C)O2)[C@H](C)[C@@H](O[C@@H]2O[C@H](C)C[C@H](N(C)C)[C@H]2OC(=O)NNCc2ccccn2)C(C)(O)C[C@@H](C)/C(=N\\OCCCC2CCCCC2)[C@H](C)[C@@H](O)[C@]1(C)O", "strain or isolate": "20066 (clarithromycin-susceptible)", "result": "0.78 µg/mL"}
{"structure": "CN[C@@H]1[C@H](O[C@H]2[C@H](O[C@H]3[C@H](O)[C@@H](O)[C@H](N=C(N)N)[C@@H](O)[C@@H]3N=C(N)N)O[C@@H](C)[C@]2(O)C=O)O[C@@H](CO)[C@H](O)[C@H]1O", "strain or isolate": "N-919 (HIV-)", "result": "0.25 µg/mL"}
{"structure": "CC1(C)S[C@@H]2[C@H](NC(=O)C(C(=O)O)c3ccccc3)C(=O)N2[C@H]1C(=O)O", "strain or isolate": "CIPT 140310001", "result": "25 µg/mL"}
{"structure": "CO[C@H]1/C=C/O[C@@]2(C)Oc3c(C)c(O)c4c(=O)c(c5oc6cc(N7CCN(CC(C)C)CC7)cc(=O)c6nc5c4c3=C2O)NC(=O)/C(C)=C\\C=C\\[C@H](C)[C@H](O)[C@@H](C)[C@@H](O)[C@@H](C)[C@H](OC(C)=O)[C@@H]1C", "strain or isolate": "N-486 (HIV-)", "result": "≤0.0125 µg/mL"}
{"structure": "CCNNC(=O)O[C@H]1[C@H](O[C@@H]2[C@@H](C)[C@H](O[C@H]3C[C@@](C)(OC)[C@@H](OC(C)=O)[C@H](C)O3)[C@@H](C)C(=O)O[C@H](CC)[C@@](C)(O)[C@H](O)[C@@H](C)/C(=N/OCCCC3CCCCC3)[C@H](C)CC2(C)O)O[C@H](C)C[C@@H]1N(C)C", "strain or isolate": "20066 (clarithromycin-susceptible)", "result": "0.78 µg/mL"}

A second listing of 2 rows from above:

CC1(C)S[C@@H]2[C@H](NC(=O)[C@H](C(=O)[O-])c3ccsc3)C(=O)N2[C@H]1C(=O)[O-].[Na+].[Na+] ; strain or isolate: CIPT 140310021 ; result: 35 µg/mL
CC[C@H]1OC(=O)[C@H](C)[C@@H](O[C@H]2C[C@@](C)(OC)[C@@H](O)[C@H](C)O2)[C@H](C)[C@@H](O[C@@H]2O[C@H](C)C[C@H](N(C)C)[C@H]2O)[C@](C)(OC)C[C@@H](C)C(=O)[C@H](C)[C@@H](O)[C@]1(C)O ; strain or isolate: N-846 (HIV-) ; result: 1 µg/mL